Results of unrelated studies side by side (data: NIAID ChemDB).

Common to all: cytotoxicity tests; cells: L1210; endpoint: CC50

Blank or dashed fields: not listed here.

{"compound": "COc1cc(OC[C@H]2CC[C@@H](COCc3ccccc3)O2)nc(N)n1", "result": "70 µM"}
{"compound": "CO[C@H]1O[C@H](Cn2c(C)c(C)c(=O)[nH]c2=O)[C@H](O)[C@H]1OCc1ccccc1F", "result": "104 µM"}
{"compound": "Nc1nc(OC[C@H]2CC[C@@H](CO)O2)c2[nH]cnc2n1", "result": "≥250 µM"}
{"compound": "CO[C@H]1O[C@H](Cn2cc(Cl)c(=O)[nH]c2=O)[C@H](O)[C@H]1OCc1ccccc1F", "result": ">250 µM"}
{"compound": "c1ccc(COC[C@@H]2CC[C@H](COc3ncnc4nc[nH]c34)O2)cc1", "result": "29 µM"}
{"compound": "CO/C=C1\\C[C@H](/C=C/c2ccccc2)OC1=O", "result": ">50 µg/mL"}
{"compound": "N#Cc1cnn(CCCc2ccccc2)c1/N=c1\\ssnc1Cl", "result": "3 µM"}
{"compound": "Nc1nc(N)c2nc(CNc3ccc(C(=O)NC(CCCCP(=O)(O)O)C(=O)O)cc3)cnc2n1", "result": "0.13 µM"}
{"compound": "CC(C)(C)n1ncc(C#N)c1/N=c1\\ssnc1Cl", "result": "5 µM"}
{"compound": "CO/C=C(/C(=O)OC)[C@H](C)[C@@H](O)/C=C/c1ccccc1", "result": "50–100 µg/mL"}
{"compound": "Cc1cn(C2C[C@H](F)[C@@H](COP(=O)(N[C@@H](C)C(=O)OC(C)C)Oc3ccccc3)O2)c(=O)[nH]c1=O", "read by": "cell count", "result": ">250 µM"}
{"compound": "Nc1cc(OC[C@H]2CC[C@@H](COCc3ccccc3)O2)nc(N)n1", "result": ">250 µM"}
{"compound": "Nc1nc(N)c2nc(CNc3ccc(C(=O)NC(CCCP(=O)(O)O)C(=O)O)cc3)cnc2n1", "result": "0.12 µM"}
{"compound": "N#Cc1cnn(-c2ccccc2)c1/N=c1\\ssnc1Cl", "result": "7.5 µM"}
{"compound": "CCCCC(=O)OC1CC(OC(C)C(C)C(O)C(C)C(O)C(C)C2OC(=O)/C=C/CC(O)CC(O)CC(O)CCC(C)C(O)C[C@@]3(O)O[C@H](CC(O)CC(OC(=O)CC(=O)O)CCCC(O)C4OC4C2C)C[C@H](O)[C@H]3O)OC(C)C1O", "result": ">100 µg/mL"}
{"compound": "Nc1ccnc(OC[C@H]2CC[C@@H](CO)O2)n1", "result": "≥250 µM"}
{"compound": "N#Cc1cnn(Cc2ccccc2)c1/N=c1\\ssnc1Cl", "result": "8 µM"}
{"compound": "Nc1nc(OC[C@H]2CC[C@@H](COCc3ccccc3)O2)cc(OC[C@@H]2CC[C@H](COCc3ccccc3)O2)n1", "result": "25 µM"}
{"compound": "N#Cc1ncn(CCc2ccc(Cl)cc2Cl)c1/N=c1\\ssnc1Cl", "result": "5 µM"}

The last 2 rows once more:

compound,read by,result
Nc1nc(OC[C@H]2CC[C@@H](COCc3ccccc3)O2)cc(OC[C@@H]2CC[C@H](COCc3ccccc3)O2)n1,,25 µM
N#Cc1ncn(CCc2ccc(Cl)cc2Cl)c1/N=c1\ssnc1Cl,,5 µM

Two numbers with a dash give a range or band. Neighbouring rows are from separate reports. CCn: concentration that lowers growth or viability of the cells by n%.